The series concerns the target T1, SPM-1 beta-lactamase (Pseudomonas aeruginosa) (UniProt Q8G9Q0).
T1 sequence (looked up, limits assumed): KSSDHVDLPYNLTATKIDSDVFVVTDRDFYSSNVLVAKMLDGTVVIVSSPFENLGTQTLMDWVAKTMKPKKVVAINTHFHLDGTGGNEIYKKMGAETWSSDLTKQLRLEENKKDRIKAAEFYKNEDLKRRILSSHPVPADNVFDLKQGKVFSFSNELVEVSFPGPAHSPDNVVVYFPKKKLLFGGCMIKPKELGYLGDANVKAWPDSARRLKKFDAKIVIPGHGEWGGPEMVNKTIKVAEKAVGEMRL
The series can be described thus: BLI. As to conditions: 5 mM Mg2+, 5 uM Zn2+, only the range over all aptamers given.

Construct, isoform or probe ends are uncertain for at least one entry. At least one verdict rests on a figure or table, not on a statement of the authors. Tags and fusion partners may be left off the protein sequences shown.

Regarding “GGGAGACUCAGCCUUCACUGCUAGAGAUUCGGUGGGACACCCGGUGAAAGGCUGACCACUAGGCACCACGGUCGGAUCC [S1 RNA]”, the binding result is listed as “binds”.

The record behind these values is paper doi:10.1101/2024.08.16.608213.
